Values from PubChem BioAssay AID1259414 (Drosophila RNAi Screening Center, 2018)

- Screen: 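Genome-wide screen for host control of endosymbiont load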 (primary screen)
- System: Drosophila JW18 cells infected with Wolbachia
- Reagent: long dsRNA against Drosophila genes, 0.25 µg dsRNA per well of a 384-well plate
- Timing: 5 days
- Treatment: cells persistently infected with Wolbachia before knock-down; no added drug
- Detection: 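Imaged fluorescence in situ signal for Wolbachia 23S rRNA per DAPI-counted host cell, given as a robust z-score within each plate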
- Scale: Wolbachia per cell robust z: higher = more Wolbachia per host cell than the plate typical
- Call rule: 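Active if absolute robust z reaches 1.5 in two or more of three replicates, leaving out multi- or no-target dsRNAs, genes unexpressed in JW18 and A1 wells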
The deposit covers about 24,000 reagents; below is an unselected part of those with a known target gene and a result. In the full data, about 1,210 (5%) are marked active. 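Inactive calls also include excluded dsRNAs with several or no targets, genes unexpressed in JW18, and well A1, regardless of score.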

no.	target	DRSC id	Wolbachia per cell robust z, rep 1	Wolbachia per cell robust z, rep 2	Wolbachia per cell robust z, rep 3	outcome
1	CG9308	DRSC04539	0.111	0.098	0.704	inactive
2	CG9308	DRSC28962	-0.56	-0.27	-0.249	inactive
3	CG10654	DRSC09767	0.0585	0.07	0.193	inactive
4	Aven	DRSC19693	0.42	0.12	-0.858	inactive
5	CG17994	DRSC04877	-0.675	-1.84	0.322	inactive
6	obst-G	DRSC11103	0.842	0.327	1.31	inactive
7	CG1368	DRSC19537	-0.0497	-0.106	-0.0931	inactive
8	CG1368	DRSC25431	-0.256	-0.526	-0.91	inactive
9	CG1368	DRSC38997	-0.503	1.26	-0.171	inactive
10	cta	DRSC03769	-4.95	0.711	0.645	inactive
11	CG34029	DRSC38893	1.68	0.549	0.636	inactive
12	CG15406	DRSC00420	-1.15	0.912	-0.274	inactive
13	CG15406	DRSC28108	0.775	-1.55	0.249	inactive
14	Cpr65Au	DRSC22738	-0.0703	-1.59	-1.23	inactive
15	Rrp4	DRSC04434	-0.0795	0.153	-0.855	inactive
16	Rrp4	DRSC29543	0.396	1.52	0.403	inactive
17	mIF2	DRSC14510	0.332	0.352	-0.21	inactive
18	mIF2	DRSC26368	0.1	-0.53	-0.415	inactive
19	CG32638	DRSC18968	-0.338	-0.287	-0.948	inactive
20	Brf	DRSC14166	0.166	-1.81	1.27	inactive
21	Brf	DRSC14167	-1.76	-0.711	-1.87	active
22	Drice	DRSC16715	0.0659	0.791	0.598	inactive
23	Drice	DRSC27804	0.126	0.512	-1.01	inactive
24	CG13038	DRSC09919	-1.06	-0.0654	0.737	inactive
25	CG2765	DRSC04315	1.57	0.965	-0.641	inactive
26	Rif1	DRSC05593	-0.592	0.387	-0.713	inactive
27	Secp43	DRSC00454	0.525	1.13	0.517	inactive
28	Secp43	DRSC27411	0.375	-0.723	-0.179	inactive
29	CG7142	DRSC16204	-0.418	-0.369	-0.614	inactive
30	CG7142	DRSC26968	-0.568	-0.16	0.511	inactive
31	Ucp4A	DRSC19996	1.15	1.33	1.81	inactive
32	Ucp4A	DRSC27013	-0.963	-1.25	-0.129	inactive
33	Drak	DRSC19778	1.29	-0.529	-1.99	inactive
34	Drak	DRSC23298	0.179	0.372	-1.06	inactive
35	Drak	DRSC28871	-1.26	0.0099	0.577	inactive
36	Eig71Ef	DRSC11153	0.938	0.821	0.016	inactive
37	CG33477	DRSC22934	0.809	-0.352	0.886	inactive
38	Cyp12d1-d	DRSC41330	1.29	-0.178	-0.582	inactive
39	Cyp6d4	DRSC16633	0.685	2.1	0.886	inactive
40	Cyp6d4	DRSC24371	-0.0787	0.194	0.219	inactive
41	Cnot4	DRSC02830	-0.404	0.291	0.268	inactive
42	Cnot4	DRSC02831	0.139	0.245	0.518	inactive
43	betaNACtes3	DRSC20183	-2.08	0.392	0.71	inactive
44	lncRNA:iab4	DRSC22331	-1.15	0.87	0.319	inactive
45	lncRNA:iab4	DRSC26703	0.651	1.22	0.71	inactive
46	lncRNA:CR32027	DRSC09571	0.546	-6.8	-0.326	inactive
47	dysc	DRSC10273	0.823	0.444	0.579	inactive
48	dysc	DRSC11040	0.841	-0.473	-2.52	inactive
49	dysc	DRSC22334	-0.112	-0.334	0.471	inactive
50	dysc	DRSC22824	-0.18	-0.69	0.106	inactive
51	dysc	DRSC23128	-1.25	0.413	0.851	inactive
52	dysc	DRSC26188	-2.91	-7.58	-0.727	active
53	obst-A	DRSC20543	0.505	0.483	-1.48	inactive
54	CG3308	DRSC15474	-0.744	0.109	2.92	inactive
55	Gr22b	DRSC20911	1.79	-1.32	-1.43	inactive
56	CG43147	DRSC40523	0.905	1.24	-2.01	inactive
57	CG8343	DRSC04905	-5.39	1.27	0.0637	inactive
58	CG8343	DRSC27692	0.23	-0.455	0.464	inactive
59	su(f)	DRSC20907	1.13	-2.54	0.316	inactive
60	su(f)	DRSC40823	-0.0837	-0.209	0.304	inactive
61	ppk10	DRSC38920	-0.707	-1.71	-1.16	inactive
62	CG6216	DRSC10606	-0.271	0.506	0.0257	inactive
63	CG6216	DRSC28352	-0.299	0.483	0.0908	inactive
64	CG44098	DRSC12214	0.238	1.22	-0.539	inactive
65	CG44098	DRSC12240	1.13	1.31	2.55	inactive
66	CG44098	DRSC12327	1.39	-0.394	0.457	inactive
67	CG44098	DRSC23643	1.35	0.632	1.21	inactive
68	CG44098	DRSC24166	-0.245	-0.789	0.0103	inactive
69	CG44098	DRSC26836	0.372	-1.33	-1.76	inactive
